The entries are a selection whose mix differs from that of the whole data set. The source made the active and inactive calls. No stated cut-off is given here; in the data, active means inhibition above about 24%; inactive means the rest.
These compounds were tested against Major prion protein (Homo sapiens) (UniProt P04156) (assay: reduces human prion protein on the cell surface, primary screen, cell-based, TR-FRET (AID 720596; further: 0% = median of the test wells and 100% = reference compound wells)). Details: cell surface PrPC, TR-FRET read-out; at 13.8 µM; stronger effect = higher value.

| Structure (SMILES) | inhibition |
| --- | --- |
| CCCCn1nnnc1C(c1cccc(OC)c1OC)N1CCC(n2c(=O)[nH]c3ccccc32)CC1 (stereo not given) | inactive: 3.76% |
| O=c1[nH]c2ccccc2n1C1CCN(C(c2cccs2)c2nnnn2C2CCCC2)CC1 (stereo not given) | inactive: 14.9% |
| O=C(OC1CN2CCC1CC2)C1c2ccccc2C=Cc2ccccc21 (stereo not given) | inactive: -7.59% |
| N/C(=N\O)c1c(N)no[n+]1[O-] | inactive: -3.37% |
| CCOC(=O)N1CCC(Nc2ccc(C)cc2)CC1 | inactive: -4.93% |
| COc1cccc(C(c2nnnn2C(C)(C)C)N2CCC(n3c(=O)[nH]c4ccccc43)CC2)c1OC (stereo not given) | inactive: 8.98% |
| O=c1[nH]c2ccccc2n1C1CCN(C(c2ccnc3ccccc23)c2nnnn2C2CCCC2)CC1 (stereo not given) | inactive: 4.57% |
| COc1ccc(C(=O)NCC2(N3CCOCC3)CCCCC2)cc1OC | inactive: -4.69% |
| NC(=O)C1(Nc2ccccc2)CCN(Cc2ccccc2)CC1 | inactive: -7.15% |
| O=c1[nH]c2ccccc2n1C1CCN(C(c2cccs2)c2nnnn2C2CCCCC2)CC1 (stereo not given) | inactive: 5.05% |
| O=C(NCC1(N2CCOCC2)CCCCC1)c1cc(Br)ccc1Cl | inactive: -8% |
| COc1cc(C(=O)NCC2(N3CCOCC3)CCCCC2)cc(OC)c1C | inactive: -9.71% |
| CCCCn1nnnc1C(c1ccccc1)N1CCC(n2c(=O)[nH]c3ccccc32)CC1 (stereo not given) | inactive: 5.92% |
| CC(C)(C)n1nnnc1C(c1cccc2ccccc12)N1CCC(n2c(=O)[nH]c3ccccc32)CC1 (stereo not given) | inactive: 4.82% |
| O=c1[nH]c2ccccc2n1C1CCN(C(c2ccccc2)c2nnnn2C2CCCC2)CC1 (stereo not given) | inactive: -0.94% |
| CCCN1CCC(Nc2cc(OC)cc(OC)c2)CC1 | inactive: -10.4% |
| Cc1cc(N(CCCl)CCCl)ccc1C=O | inactive: -5.67% |
| C/C(N)=N\P(=O)(Oc1ccccc1)Oc1ccccc1 | inactive: 10.4% |
| c1ccc(CN2CCC(Nc3ccccc3)CC2)cc1 | inactive: -3.96% |
| CN(C)C1(CNC(=O)c2cccc(C#N)c2)CCCCC1 | inactive: -3.87% |
| CC(C)(C)OC(=O)N1CCC(N(C(=O)c2ccccc2)c2ccc(Cl)cc2)CC1 | inactive: 2.03% |
| N#Cc1ccc(C(=O)NCC2(N3CCCCC3)CCCCC2)cc1 | inactive: 0.03% |

| Structure (SMILES) | inhibition |
| --- | --- |
| CN(C)c1ccc(C(=O)NCC2(N3CCCCC3)CCCCC2)cc1 | inactive: -7.42% |
| Cn1c(=O)[nH]cc(N(CCCl)CCCl)c1=O | inactive: 3.05% |
| O=C(NCC1(N2CCCCC2)CCCCC1)c1ccco1 | inactive: 1.16% |
| COc1ccc(C(c2nnnn2C2CCCCC2)N2CCC(n3c(=O)[nH]c4ccccc43)CC2)cc1 (stereo not given) | inactive: -3.17% |
| CCN1CCC(Nc2cccc(F)c2)CC1 | inactive: 10.1% |
| CC(C)(C)n1nnnc1C(c1ccnc2ccccc12)N1CCC(n2c(=O)[nH]c3ccccc32)CC1 (stereo not given) | inactive: 2.22% |
| Cc1ccccc1NC1(C#N)CCN(Cc2ccccc2)CC1 | inactive: 0.13% |
| Cc1ccc(NC2(C#N)CCN(Cc3ccccc3)CC2)cc1 | inactive: 3.7% |
| Fc1ccccc1NC1CCN(Cc2ccccc2)CC1 | inactive: 2.11% |
| Cc1ccc(C(=O)NCC2(N3CCCCC3)CCCCC2)o1 | inactive: -6.42% |
| COc1cc(OC)cc(C(=O)NCC2(N3CCCCC3)CCCCC2)c1 | inactive: -3.16% |
| O=c1[nH]c2ccccc2n1C1CCN(C(c2ccnc3ccccc23)c2nnnn2C2CCCCC2)CC1 (stereo not given) | inactive: -1.74% |
| CCC(c1nnnn1C1CCCCC1)N1CCC(n2c(=O)[nH]c3ccccc32)CC1 (stereo not given) | inactive: 5.31% |
| COc1cccc(C(c2nnnn2C2CCCCC2)N2CCC(n3c(=O)[nH]c4ccccc43)CC2)c1OC (stereo not given) | inactive: 8.34% |
| CC(=O)N(c1ccccc1)C1CCNCC1 | inactive: -7.58% |
| CN1CCC(Nc2ccc(Cl)cc2)CC1 | inactive: -1.6% |
| CCC(CO)(C(=O)OC1CN2CCC1CC2)c1ccccc1 (stereo not given) | inactive: 6.32% |
| COc1cccc(C(=O)N(c2cc(C)cc(C)c2)C2CCN(C(=O)OC(C)(C)C)CC2)c1 | inactive: 3.99% |
| COc1cccc(C(c2nnnn2C2CCCC2)N2CCC(n3c(=O)[nH]c4ccccc43)CC2)c1OC (stereo not given) | inactive: 0.1% |
| COc1cc(OC)cc(C(=O)NCC2(N3CCOCC3)CCCCC2)c1 | inactive: -3.72% |
| O=c1[nH]c2ccccc2n1C1CCN(C(c2cc3ccccc3o2)c2nnnn2C2CCCC2)CC1 (stereo not given) | inactive: -0.89% |
| CCCOc1ccc(C(=O)NCC2(N(C)C)CCCCC2)cc1 | inactive: -10.7% |

| Structure (SMILES) | inhibition |
| --- | --- |
| NN(c1ccccc1)C1CCN(CCc2ccccc2)CC1 | inactive: -3.29% |
| O=C(O)C1(Nc2ccccc2)CCN(Cc2ccccc2)CC1 | inactive: -4.21% |
| CC(C)(C)OC(=O)N1CCC(Nc2ccccc2)CC1 | inactive: -7.89% |
| CN1CCC(Nc2ccc(F)c(Cl)c2)CC1 | inactive: -0.21% |
| CCOc1ncccc1C(=O)NCC1(N2CCOCC2)CCCCC1 | inactive: -8.16% |
| CCCCn1nnnc1C(c1ccc(OC)cc1)N1CCC(n2c(=O)[nH]c3ccccc32)CC1 (stereo not given) | inactive: -6.64% |
| CCOC(=O)N1CCC(Nc2ccc(OC)cc2)CC1 | inactive: 1.11% |
| COc1ccc(Cl)cc1C(=O)NCC1(N2CCOCC2)CCCCC1 | inactive: 1.24% |
| N#CC1(Nc2ccccc2)CCN(Cc2ccccc2)CC1 | inactive: 4.92% |
| O=C(NCC1(N2CCCCC2)CCCCC1)c1ccc(Cl)s1 | inactive: -3.97% |
| O=c1[nH]c2ccccc2n1C1CCN(C(c2cc3ccccc3o2)c2nnnn2C2CCCCC2)CC1 (stereo not given) | inactive: -5.55% |
| O=C(OC1CN2CCC1CC2)C1c2ccccc2Oc2ccccc21 (stereo not given) | inactive: 7.55% |
| O=C(NCC1(N2CCOCC2)CCCCC1)c1cc2ccccc2o1 | inactive: -3.32% |
| Cc1cc(C)cc(N(C(=O)c2ccccc2)C2CCN(C(=O)OC(C)(C)C)CC2)c1 | inactive: 3.18% |
| O=C(NCC1(N2CCCCC2)CCCCC1)c1ccc(Cl)nc1 | inactive: -1.65% |
| O=c1[nH]c2ccccc2n1C1CCN(C(c2ccccc2OC(F)(F)F)c2nnnn2C2CCCCC2)CC1 (stereo not given) | inactive: 8.8% |
| Cc1cccc(NC2(C#N)CCN(Cc3ccccc3)CC2)c1 | inactive: 8.95% |
| CSc1ccccc1C(=O)NCC1(N2CCCCC2)CCCCC1 | inactive: -0.7% |
| CCCCn1nnnc1C(CC)N1CCC(n2c(=O)[nH]c3ccccc32)CC1 (stereo not given) | inactive: 4.24% |
| O=C(NCC1(N2CCCCC2)CCCCC1)c1cccs1 | inactive: -6.55% |
| CCCCn1nnnc1C(c1cccs1)N1CCC(n2c(=O)[nH]c3ccccc32)CC1 (stereo not given) | inactive: 7.85% |
| O=C(NCC1(N2CCCCC2)CCCCC1)c1ccc(=O)[nH]c1 | inactive: -13% |

| Structure (SMILES) | inhibition |
| --- | --- |
| COc1ccc(C(=O)NCC2(N3CCCCC3)CCCCC2)c(OC)c1OC | inactive: -5.14% |
| CC(C)(C)OC(=O)N1CCC(N(C(=O)c2ccccc2)c2ccc(F)cc2)CC1 | inactive: 0.14% |
| CCC(c1nnnn1C1CCCC1)N1CCC(n2c(=O)[nH]c3ccccc32)CC1 (stereo not given) | inactive: -2.77% |
| COc1ccc(C(=O)NCC2(N3CCCCC3)CCCCC2)cc1 | inactive: -10.4% |
| O=c1[nH]c2ccccc2n1C1CCN(C(c2cccc3ccccc23)c2nnnn2C2CCCC2)CC1 (stereo not given) | inactive: 6.68% |
| CCOC(=O)N1CCC(Nc2cccc(C)c2)CC1 | inactive: 7.78% |
| COc1cc(C(=O)NCC2(N(C)C)CCCCC2)ccc1OC(F)F | inactive: -16.4% |
| O=c1[nH]c2ccccc2n1C1CCN(C(c2ccccc2)c2nnnn2C2CCCCC2)CC1 (stereo not given) | inactive: -4.22% |
| CCOC(=O)N1CCC(Nc2ccc(F)cc2)CC1 | inactive: 9.25% |
| COc1ccc(NC2CCN(CCc3ccccc3)CC2)c(OC)c1 | inactive: -5.43% |
| CCCCOc1ccc(C(=O)NCC2(N3CCOCC3)CCCCC2)cc1 | inactive: -2.08% |
| O=P1(N(CCCl)CCCl)SCCCS1 | inactive: -3.62% |
| CCCCn1nnnc1C(c1cc2ccccc2o1)N1CCC(n2c(=O)[nH]c3ccccc32)CC1 (stereo not given) | inactive: 1.99% |
| O=C(NCC1(N2CCCCC2)CCCCC1)c1ccc(F)cc1 | inactive: -2.42% |
| CCOc1ccc(C)cc1CN(CCCl)CCCl | inactive: 6.66% |
| O=C1CCN(Cc2ccccc2)CC1 | inactive: -7.13% |
| CC(C)(C)n1nnnc1C(c1ccccc1)N1CCC(n2c(=O)[nH]c3ccccc32)CC1 (stereo not given) | inactive: 9.41% |
| COc1ccc(NC2CCN(C(=O)OC(C)(C)C)CC2)cc1 | inactive: 4.65% |
| CC(C)c1ccc(C(=O)NCC2(N3CCOCC3)CCCCC2)cc1 | inactive: -3.62% |
| CN1CCN(CCOC(=O)C(O)(c2ccccc2)c2ccccc2)CC1 | inactive: 2.04% |
| CCCCn1nnnc1C(c1cccc2ccccc12)N1CCC(n2c(=O)[nH]c3ccccc32)CC1 (stereo not given) | inactive: 3.02% |
| O=C(NCC1(N2CCOCC2)CCCCC1)c1cc(=O)[nH]c2ccccc12 | inactive: -3.81% |

| Structure (SMILES) | inhibition |
| --- | --- |
| COc1cc(C(=O)NCC2(N3CCCCC3)CCCCC2)ccc1OC(F)F | inactive: 6.21% |
| O=C(NCC1(N2CCCCC2)CCCCC1)c1cccc(C(F)(F)F)c1 | inactive: 1.98% |
| CSc1ccc(C(=O)NCC2(N3CCOCC3)CCCCC2)cc1 | inactive: 2.05% |
| O=C(NCC1(N2CCCCC2)CCCCC1)c1cccc([N+](=O)[O-])c1 | inactive: -6.06% |
| O=c1[nH]c2ccccc2n1C1CCN(C(c2ccccc2OC(F)(F)F)c2nnnn2C2CCCC2)CC1 (stereo not given) | inactive: -1.4% |
| N#CC1(Nc2ccccc2)CCN(CCc2ccccc2)CC1 | inactive: 4.22% |
| CCN1CCC(Nc2ccc(Cl)cc2)CC1 | inactive: -6.68% |
| O=C(NCC1(N2CCCCC2)CCCCC1)c1ccc(OC(F)F)cc1 | inactive: -1.14% |
| CC(C)(C)n1nnnc1C(c1ccccc1OC(F)(F)F)N1CCC(n2c(=O)[nH]c3ccccc32)CC1 (stereo not given) | inactive: 2.94% |
| CCCOc1ccc(C(=O)NCC2(N(C)C)CCCCC2)cc1OC | inactive: -5.91% |
| Cc1ccc(C(=O)NCC2(N(C)C)CCCCC2)o1 | inactive: 3.91% |
| COc1ccc(C(c2nnnn2C2CCCC2)N2CCC(n3c(=O)[nH]c4ccccc43)CC2)cc1 (stereo not given) | inactive: 9.94% |
| CN1CCC(Nc2cccc(F)c2)CC1 | inactive: -0.04% |
| O=C(NCC1(N2CCCCC2)CCCCC1)c1cncc(Br)c1 | inactive: -7.78% |
| CCCCn1nnnc1C(c1ccnc2ccccc12)N1CCC(n2c(=O)[nH]c3ccccc32)CC1 (stereo not given) | inactive: -0.2% |
| O=C(NCC1(N2CCOCC2)CCCCC1)c1cc(F)c(F)cc1Cl | inactive: -5.73% |
| CCC(c1nnnn1C(C)(C)C)N1CCC(n2c(=O)[nH]c3ccccc32)CC1 (stereo not given) | inactive: -1.63% |
| COc1cc(OC)c(C(=O)NCC2(N(C)C)CCCCC2)cc1OC | inactive: -3.39% |
| CN(C)c1cccc(C(=O)NCC2(N3CCCCC3)CCCCC2)c1 | inactive: -5.61% |
| COc1ccc(CN(CCCl)CCCl)cc1Cl | inactive: 5.22% |
| COC(=O)C1(Nc2ccccc2)CCN(Cc2ccccc2)CC1 | inactive: 1.72% |
| CC(C)c1ccc(NC2CCN(C(=O)OC(C)(C)C)CC2)cc1 | inactive: -0.06% |

Source: PubChem BioAssay AID720596 (The Scripps Research Institute Molecular Screening Center, 2013)
